Results as given in patent US20220089698A1, “ANTIBODIES THAT TARGET HIV GP120 AND METHODS OF USE” (published 2022).

Tests used:
Experiment in all cases: cell-based or functional assay
[1] = target: HIV-1 envelope glycoprotein gp120 of virus BaL (HIV-1)
[2] = target: HIV-1 envelope glycoprotein gp120 of virus 92US727 (HIV-1)
[3] = target: HIV-1 envelope glycoprotein gp120 of virus 92HT593 (HIV-1)
[4] = target: HIV-1 envelope glycoprotein gp120 of virus 92US657 (HIV-1)
[5] = target: HIV-1 envelope glycoprotein gp120 of virus 92US712 (HIV-1)

B1: Antibody 1.1.10-1 (antibody, human IgG1, kappa)
heavy: QVQLLQSGAAVTKPGASVRVSCEASGYNIRDYFIHWWRQAPGQGLQWVGWINPKTGQPNNPRQFQGRVSLTRHASWDFDTFSFYMDLKALRSDDTAVYFCARQRSDYWDFDVWGSGTQVTVSSASTKGPSVFPLAPSSKSTSGGTAALGCLVKDYFPEPVTVSWNSGALTSGVHTFPAVLQSSGLYSLSSVVTVPSSSLGTQTYICNVNHKPSNTKVDKKVEPKSCDKTHTCPPCPAPELLAGPDVFLFPPKPKDTLMISRTPEVTCVVVDVSHEDPEVKFNWYVDGVEVHNAKTKPREEQYNSTYRVVSVLTVLHQDWLNGKEYKCKVSNKALPLPEEKTISKAKGQPREPQVYTLPPSREEMTKNQVSLTCLVKGFYPSDIAVEWESNGQPENNYKTTPPVLDSDGSFFLYSKLTVDKSRWQQGNVFSCSVLHEALHSHYTQKSLSLSPGK
light: not shown
Virus Neutralization Potency [1]: 0.021 µg/mL | Virus Neutralization Potency [2]: > 20 µg/mL | Virus Neutralization Potency [3]: 0.013 µg/mL | Virus Neutralization Potency [4]: 1.83 µg/mL | Virus Neutralization Potency [5]: 0.088 µg/mL

B2: Antibody 1.33.32-1 (antibody, human IgG1, kappa)
heavy: QVQLVQSGAEVKKPGASVRVSCKASGYNIRDYFIHWWRQAPGQGLQWVGWINPKTGQPNNPRQFQGRVTLTRHASWDFDTFSFYMDLKALRSDDTATYFCARQRSDYWDFDVWGSGTQVTVSSASTKGPSVFPLAPSSKSTSGGTAALGCLVKDYFPEPVTVSWNSGALTSGVHTFPAVLQSSGLYSLSSVVTVPSSSLGTQTYICNVNHKPSNTKVDKKVEPKSCDKTHTCPPCPAPELLAGPDVFLFPPKPKDTLMISRTPEVTCVVVDVSHEDPEVKFNWYVDGVEVHNAKTKPREEQYNSTYRVVSVLTVLHQDWLNGKEYKCKVSNKALPLPEEKTISKAKGQPREPQVYTLPPSREEMTKNQVSLTCLVKGFYPSDIAVEWESNGQPENNYKTTPPVLDSDGSFFLYSKLTVDKSRWQQGNVFSCSVLHEALHSHYTQKSLSLSPGK
light: not shown
Virus Neutralization Potency [1]: 0.063 µg/mL | Virus Neutralization Potency [2]: > 20 µg/mL | Virus Neutralization Potency [3]: 0.01 µg/mL | Virus Neutralization Potency [4]: 1.39 µg/mL | Virus Neutralization Potency [5]: 0.062 µg/mL

B3: Antibody 1.8.52-1 (antibody, human IgG1, kappa)
heavy: QVQLVQSGAEVTKPGASVRVSCEASGYNIRDYFIHWWRQAPGQGLQWVGWINPKTGQPNNPRQFQGRVSLTRHASWDFDTFSFYMDLKALRSDDTAVYFCARQRSDYWDFDVWGSGTQVTVSSASTKGPSVFPLAPSSKSTSGGTAALGCLVKDYFPEPVTVSWNSGALTSGVHTFPAVLQSSGLYSLSSVVTVPSSSLGTQTYICNVNHKPSNTKVDKKVEPKSCDKTHTCPPCPAPELLAGPDVFLFPPKPKDTLMISRTPEVTCVVVDVSHEDPEVKFNWYVDGVEVHNAKTKPREEQYNSTYRVVSVLTVLHQDWLNGKEYKCKVSNKALPLPEEKTISKAKGQPREPQVYTLPPSREEMTKNQVSLTCLVKGFYPSDIAVEWESNGQPENNYKTTPPVLDSDGSFFLYSKLTVDKSRWQQGNVFSCSVLHEALHSHYTQKSLSLSPGK
light: not shown
Virus Neutralization Potency [1]: 0.076 µg/mL | Virus Neutralization Potency [2]: > 20 µg/mL | Virus Neutralization Potency [3]: 0.015 µg/mL | Virus Neutralization Potency [4]: 2.81 µg/mL | Virus Neutralization Potency [5]: 0.141 µg/mL
